For assay [1], the target named is T1, HIV-1 Gag expressed in HeLa cells in the absence of Vpu (vpu- protease- proviral construct pHJ121) (HIV-1).
T1 construct: also called Gag from HeLa cell lysates (vpu- construct)
Kind of assay: GST pull-down on Glutathione-Sepharose, anti-Gag Western blot.

For assay [2], the target named is T2, HIV-1 Gag expressed in HeLa cells in the presence of Vpu (vpu+ protease- proviral construct) (HIV-1).
T2 construct: also called Gag from HeLa cell lysates (vpu+ construct)
Described as above.

B1: GST alone (enzyme)
chain: MSPILGYWKIKGLVQPTRLLLEYLEEKYEEHLYERDEGDKWRNKKFELGLEFPNLPYYIDGDVKLTQSMAIIRYIADKHNMLGGCPKERAEISMLEGAVLDIRYGVSRIAYSKDFETLKVDFLSKLPEMLKMFEDRLCHKTYLNGDHVTHPDFMLYDALDVVLYMDPMCLDAFPKLVCFKKRIEAIPQIDKYLKSSKYIAWPLQGWQATFGGGDHPPK
notes: also called glutathione-S-transferase; GST protein
As to B1, the binding result in assay [1] and in assay [2] was “no binding (tested: GST approximately 0.5 uM)” each time.

The values are drawn from patent US20020115830A1 (WISCONSIN ALUMNI RESEARCH FOUNDATION, published 2002).
